Results taken from patent publication US20200408687.
No signal at the amounts used counts as a negative.

The chains behind the UniProt entries cited, without tags or fusion partners.
UniProt P19821, whole entry: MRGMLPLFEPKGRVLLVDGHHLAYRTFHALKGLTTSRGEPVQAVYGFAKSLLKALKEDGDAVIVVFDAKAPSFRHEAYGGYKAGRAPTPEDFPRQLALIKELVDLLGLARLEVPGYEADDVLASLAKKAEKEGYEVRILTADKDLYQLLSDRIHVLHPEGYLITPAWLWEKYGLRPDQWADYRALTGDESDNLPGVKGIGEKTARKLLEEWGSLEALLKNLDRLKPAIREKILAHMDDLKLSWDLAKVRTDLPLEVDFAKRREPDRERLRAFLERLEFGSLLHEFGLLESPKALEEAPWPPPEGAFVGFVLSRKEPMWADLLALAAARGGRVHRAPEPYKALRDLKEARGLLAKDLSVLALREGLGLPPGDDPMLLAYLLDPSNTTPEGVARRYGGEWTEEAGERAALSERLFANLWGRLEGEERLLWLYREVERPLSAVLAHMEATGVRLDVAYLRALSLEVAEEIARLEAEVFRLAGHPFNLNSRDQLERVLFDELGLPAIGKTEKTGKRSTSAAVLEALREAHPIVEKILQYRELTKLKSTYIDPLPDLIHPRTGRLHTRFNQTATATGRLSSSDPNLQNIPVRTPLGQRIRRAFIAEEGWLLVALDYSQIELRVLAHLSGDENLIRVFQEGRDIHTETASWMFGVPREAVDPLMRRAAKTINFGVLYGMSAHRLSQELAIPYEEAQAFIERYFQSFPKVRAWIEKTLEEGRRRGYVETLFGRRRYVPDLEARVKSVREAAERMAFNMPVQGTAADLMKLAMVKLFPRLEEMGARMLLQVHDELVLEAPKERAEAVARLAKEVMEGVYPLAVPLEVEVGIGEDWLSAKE

Target: Taq DNA polymerase (UniProt P19821)
Test: inhibition of the protein
Settings: negligible signal with off-target bacterial samples (10^6 CFU of other species); purified recombinant protein; single-stranded DNA; dose not given here

Sequence: CAATGTACAGTATTGTGGAGGAAGGGAGTAAAGTTAAT [Escherichia detection key without its target]
- functional effect of the aptamer: not active
